Results of unrelated studies side by side (data: NIAID ChemDB).

All rows: growth or infection tests; organism: HIV-1; method: MTT; measure: EC50

Neighbouring rows are from separate reports. An empty or dashed field is not shown. ECn: concentration that inhibits the pathogen or its effect by n%.

SMILES | cells | strain or isolate | mutations | result
Cc1cc(C#N)cc(C)c1Oc1nc(NC2CCN(Cc3cccc(C(N)=O)c3)CC2)nc2sccc12 | MT-4 | RES056 | - | 4.69 µM
C#Cc1ccc(Nc2nccc(Oc3c(C)cc(-c4cn(Cc5ccccc5[N+](=O)[O-])nn4)cc3C)n2)cc1 | MT-4 | IIIB | Y181C | >7.22 µM
Cc1cn([C@H]2C[C@H](N=[N+]=[N-])[C@@H](CO)O2)c(=O)[nH]c1=O | MT-4 | IIIB | NNRTI-resistant (RT Y188L) | 0.00634 µM
Cc1cc(C#N)cc(C)c1Oc1nc(Nc2ccc(C#N)cc2)nc(N)c1Br | MT-4 | IIIB | K103N Y181C NNRTI-resistant | 0.014 µM
N#Cc1ccc(Nc2nc(Oc3c(Cl)cccc3Cl)ncc2N)cc1 | MT-4 | IIIB | - | 0.0234 µM
C#Cc1ccc(Nc2nccc(Oc3c(C)cc(-c4cn(Cc5ccc([N+](=O)[O-])cc5)nn4)cc3C)n2)cc1 | MT-4 | IIIB | - | 0.045 µM
Cc1ccnc2c1NC(=O)c1cccnc1N2C1CC1 | MT-4 | RES056 | - | >15.9 µM
CS(=O)(=O)c1ccc(CN2CCC(N=C3C=C(Cc4ccc(Cl)cc4Cl)NS(=O)(=O)N3)CC2)cc1 | MT-4 | IIIB | - | 106 µM
Nc1ccn([C@H]2CC[C@@H](CO)O2)c(=O)n1 | MT-4 | IIIB | - | 0.0774 µg/mL
N#Cc1ccc(Nc2nc(Oc3c(Cl)cc(Cl)cc3Cl)ncc2NC(=O)C(F)(F)F)cc1 | MT-4 | IIIB | - | 0.0636 µM
CCOC(=O)C1CN(Cc2ccc(S(N)(=O)=O)cc2)CCC1Nc1nc(Oc2c(C)cc(C#N)cc2C)c2sccc2n1 | MT-4 | IIIB | NNRTI-resistant (RT E138K) | 0.607 µM
C#Cc1ccc(Nc2nccc(Oc3c(C)cc(-c4cn(-c5ccc(C(=O)OC)cc5)nn4)cc3C)n2)cc1 | MT-4 | IIIB | Y188L | >242 µM
Cc1cn([C@H]2C[C@H](N=[N+]=[N-])[C@@H](CO)O2)c(=O)[nH]c1=O | MT-4 | SDF-resistant (subtype B) | - | 0.0006 µg/mL
Cc1cc(C#N)cc(C)c1Oc1nc(Nc2ccc(C#N)cc2)nc(N)c1Br | MT-4 | IIIB | NNRTI-resistant (RT F227L V106A) | 0.0294 µM
Cc1ccnc2c1NC(=O)c1cccnc1N2C1CC1 | MT-4 | 92BR014 (subtype B) | - | 0.01 µg/mL
Cc1ccccc1CN1CCC(N=C2C=C(Cc3ccc(Cl)cc3Cl)NS(=O)(=O)N2)CC1 | MT-4 | RES056 | RT-K103N Y181C | >107 µM
Cc1cc(C#N)cc(C)c1Oc1ccnc(NC2CCN(Cc3ccc(S(C)(=O)=O)cc3)CC2)n1 | MT-4 | IIIB | Resistant strain (K103N + Y181C) | 0.02 µM
N#Cc1ccc(CN2CCC(N=C3C=C(Cc4ccc(Cl)cc4Cl)NS(=O)(=O)N3)CC2)cc1 | MT-4 | IIIB | - | 27.02 µM
N#Cc1ccc(Nc2nccc(Oc3cc4c(cc3Br)c(=O)c(C(=O)O)cn4C3CCCC3)n2)cc1 | MT-4 | IIIB | - | 0.51 µM
Cc1ccnc2c1NC(=O)c1cccnc1N2C1CC1 | MT-4 | RES056 | RT-K103N Y181C | ≥7.58 µM
CCCN(C)C(=O)Oc1nsnc1-c1c(Cl)ccc(N)c1Cl | MAGI | IIIB | RT-V189I | 0.031 µM
Cc1cc(C)c(Oc2ccc([N+](=O)[O-])c(NC3CCN(Cc4ccc(S(N)(=O)=O)cc4)CC3)n2)c(C)c1 | MT-4 | IIIB | Resistant strain (K103N + Y181C) | >5.7 µM
Cc1cc(C=O)cc(C)c1Oc1ncc(NC(=O)C(F)(F)F)c(Nc2ccc(C#N)cc2)n1 | MT-4 | IIIB | - | 0.4831 µM
CC(C)n1cc(C(=O)O)c(=O)c2cc(Br)c(Oc3ccnc(Nc4ccc(C#N)cc4)n3)cc21 | MT-4 | IIIB | K103N Y181C NNRTI-resistant | 2.36 µM
O=S1(=O)NC(Cc2cccc3ccccc23)=CC(=NC2CCN(Cc3ccccc3)CC2)N1 | MT-4 | IIIB | - | 117 µM
Cc1cc(C#N)cc(C)c1Oc1ccc(N)c(NC2CCN(Cc3ccc(C(N)=O)cc3)CC2)n1 | MT-4 | IIIB | Resistant strain (K103N + Y181C) | 1.1 µM
N#Cc1ccc(Nc2nc(Oc3ccc(-c4ccc(C#N)cc4)cc3C#N)c3sccc3n2)cc1 | MT-4 | IIIB | - | 0.0702 µM
CCCn1cc(C(=O)O)c(=O)c2cc(I)c(Oc3ccnc(Nc4ccc(C#N)cc4)n3)cc21 | MT-4 | IIIB | - | 0.015 µM
Cc1cc(C)c(Nc2ccc([N+](=O)[O-])c(NC3CCN(Cc4ccc(S(C)(=O)=O)cc4)CC3)n2)c(C)c1 | MT-4 | IIIB | - | 0.0078 µg/mL
Cc1cc(C#N)cc(C)c1Oc1nc(NC2CCC(NCc3ccc(Br)cc3)CC2)nc2ccsc12 | MT-4 | RES056 | - | >3.45 µM
Cc1cc(Br)cc(C)c1Oc1ncc(N)c(Nc2ccc(C#N)cc2)n1 | MT-4 | IIIB | - | 0.0463 µM
Cc1cc(-c2ccc(C#N)cc2)cc(C)c1Oc1nc(Nc2ccc(C#N)cc2)nc2ccsc12 | MT-4 | IIIB | - | 0.038 µM
Cc1cc(C#N)cc(C)c1Oc1nc(Nc2ccc(C#N)cc2)nc(N)c1Br | MT-4 | RES056 | RT-K103N Y181C | 0.025 µM
N#Cc1ccc(Nc2nc(Oc3c(Cl)cc(Cl)cc3Cl)ncc2N)cc1 | MT-4 | RES056 | - | 2.82 µM
C#Cc1ccc(Nc2nccc(Oc3c(C)cc(-c4cn(-c5ccc(C(=O)O)cc5)nn4)cc3C)n2)cc1 | MT-4 | IIIB | F227L and V106A | 2.73 µM
Cc1cc(C)c(Oc2ncc(N)c(Nc3ccc(C#N)cc3)n2)c(C)c1 | MT-4 | RES056 | - | 0.75 µM
N#Cc1ccc(Nc2nc(Oc3ccc(-c4ccc(C#N)cc4)cc3[N+](=O)[O-])c3sccc3n2)cc1 | MT-4 | IIIB | Y188L | >15.14 µM
CC(=O)c1ccc(CN2CCC(N=C3C=C(Cc4cccc5ccccc45)NS(=O)(=O)N3)CC2)cc1 | MT-4 | RES056 | RT-K103N Y181C | >106 µM
N#Cc1ccc(Nc2nc(Oc3c(Br)cc(Br)cc3Br)ncc2[N+](=O)[O-])cc1 | MT-4 | RES056 | - | >20.4 µM

6 of the rows above, restated:

N#Cc1ccc(Nc2nc(Oc3c(Cl)cccc3Cl)ncc2N)cc1 ; cells: MT-4 ; strain or isolate: IIIB ; result: 0.0234 µM
N#Cc1ccc(CN2CCC(N=C3C=C(Cc4ccc(Cl)cc4Cl)NS(=O)(=O)N3)CC2)cc1 ; cells: MT-4 ; strain or isolate: IIIB ; result: 27.02 µM
Cc1cc(C#N)cc(C)c1Oc1ccc(N)c(NC2CCN(Cc3ccc(C(N)=O)cc3)CC2)n1 ; cells: MT-4 ; strain or isolate: IIIB ; mutations: Resistant strain (K103N + Y181C) ; result: 1.1 µM
N#Cc1ccc(Nc2nc(Oc3c(Br)cc(Br)cc3Br)ncc2[N+](=O)[O-])cc1 ; cells: MT-4 ; strain or isolate: RES056 ; result: >20.4 µM
Cc1cc(C#N)cc(C)c1Oc1nc(Nc2ccc(C#N)cc2)nc(N)c1Br ; cells: MT-4 ; strain or isolate: IIIB ; mutations: NNRTI-resistant (RT F227L V106A) ; result: 0.0294 µM
Cc1cc(C#N)cc(C)c1Oc1nc(Nc2ccc(C#N)cc2)nc(N)c1Br ; cells: MT-4 ; strain or isolate: IIIB ; mutations: K103N Y181C NNRTI-resistant ; result: 0.014 µM